{"source": "PubChem BioAssay AID504761 (Drosophila RNAi Screening Center, 2011)", "test": "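Insect host genes that dengue virus relies on to spread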 (primary screen)", "cells": "D.Mel-2 cells from Drosophila", "reagent": "long dsRNA against Drosophila genes", "treatment": "infection with dengue virus type 2; dose and infection time not stated", "measurement": "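Per well on two replicate plates, imaging gave the percent of cells positive for viral envelope protein, ranked by infection, and a nuclear count of cells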", "direction": "infection score: higher = more virus-infected cells; cell count: higher = more cells in the well", "active means": "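Very low infection ranking in both replicate wells (chance probability at most 0.065), then a retest showing infection dropped 1.5-fold or more at p below 0.05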", "meaning of the calls": "active = confirmed: knock-down lowers infection; inactive = not picked or not confirmed", "note": "The screen tested about 22,000 reagents; below is an unselected part of those that have a named target and a result. Over the whole deposit, 116 (0.52%) were called active. 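Calls depend on retest data that are not deposited; infection was ranked per plate without normalising between plates; the unit of the infection score is not given.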 Raw values are not corrected between plates. The numbers tell different reagents against one gene apart. Not stated in the record: the amount of reagent, the time to read-out."}
{"gene knocked down":"CG13230","reagent":1,"infection score, replicate 1":3.09,"infection score, replicate 2":2.35,"cell count, replicate 1":6955,"cell count, replicate 2":6685,"Outcome":"inactive"}
{"gene knocked down":"CG13230","reagent":2,"infection score, replicate 1":14.3,"infection score, replicate 2":7.07,"cell count, replicate 1":6419,"cell count, replicate 2":6227,"Outcome":"inactive"}
{"gene knocked down":"Gr22d (retired record)","reagent":1,"infection score, replicate 1":1.19,"infection score, replicate 2":2.73,"cell count, replicate 1":5969,"cell count, replicate 2":6516,"Outcome":"inactive"}
{"gene knocked down":"Gr22d (retired record)","reagent":2,"infection score, replicate 1":3.8,"infection score, replicate 2":4.6,"cell count, replicate 1":6821,"cell count, replicate 2":6398,"Outcome":"inactive"}
{"gene knocked down":"trbd (trabid)","reagent":1,"infection score, replicate 1":8.97,"infection score, replicate 2":2.93,"cell count, replicate 1":3480,"cell count, replicate 2":6563,"Outcome":"inactive"}
{"gene knocked down":"trbd (trabid)","reagent":2,"infection score, replicate 1":33.3,"infection score, replicate 2":7.62,"cell count, replicate 1":5770,"cell count, replicate 2":6195,"Outcome":"inactive"}
{"gene knocked down":"DJ-1alpha","reagent":1,"infection score, replicate 1":3.89,"infection score, replicate 2":15.2,"cell count, replicate 1":6936,"cell count, replicate 2":6491,"Outcome":"inactive"}
{"gene knocked down":"Tom7 (Translocase of outer membrane 7)","reagent":1,"infection score, replicate 1":0.48,"infection score, replicate 2":0.86,"cell count, replicate 1":6623,"cell count, replicate 2":6879,"Outcome":"inactive"}
{"gene knocked down":"Tom7 (Translocase of outer membrane 7)","reagent":2,"infection score, replicate 2":2.77,"cell count, replicate 1":405,"cell count, replicate 2":687,"Outcome":"inactive"}
{"gene knocked down":"Fer2LCH (Ferritin 2 light chain homologue)","reagent":1,"infection score, replicate 1":5.99,"infection score, replicate 2":4.89,"cell count, replicate 1":6595,"cell count, replicate 2":5497,"Outcome":"inactive"}
{"gene knocked down":"Fer2LCH (Ferritin 2 light chain homologue)","reagent":2,"infection score, replicate 1":20.9,"infection score, replicate 2":14.7,"cell count, replicate 1":6255,"cell count, replicate 2":1696,"Outcome":"inactive"}
{"gene knocked down":"Grl65a (Gustatory receptor-like 65a)","reagent":1,"infection score, replicate 1":1.36,"infection score, replicate 2":1.1,"cell count, replicate 1":5861,"cell count, replicate 2":6156,"Outcome":"inactive"}
{"gene knocked down":"Grl65a (Gustatory receptor-like 65a)","reagent":2,"infection score, replicate 1":4.47,"infection score, replicate 2":10.7,"cell count, replicate 1":7085,"cell count, replicate 2":5916,"Outcome":"inactive"}
{"gene knocked down":"mid (midline)","reagent":1,"infection score, replicate 1":3.77,"infection score, replicate 2":6.62,"cell count, replicate 1":6026,"cell count, replicate 2":6313,"Outcome":"inactive"}
{"gene knocked down":"mid (midline)","reagent":2,"infection score, replicate 1":0.39,"infection score, replicate 2":15.4,"cell count, replicate 1":5934,"cell count, replicate 2":4878,"Outcome":"inactive"}
{"gene knocked down":"mid (midline)","reagent":3,"infection score, replicate 1":4.18,"infection score, replicate 2":4.46,"cell count, replicate 1":5810,"cell count, replicate 2":6071,"Outcome":"inactive"}

Not a retest: 3 of the entries above.
{"gene knocked down":"Tom7 (Translocase of outer membrane 7)","reagent":2,"infection score, replicate 2":2.77,"cell count, replicate 1":405,"cell count, replicate 2":687,"Outcome":"inactive"}
{"gene knocked down":"Fer2LCH (Ferritin 2 light chain homologue)","reagent":1,"infection score, replicate 1":5.99,"infection score, replicate 2":4.89,"cell count, replicate 1":6595,"cell count, replicate 2":5497,"Outcome":"inactive"}
{"gene knocked down":"Fer2LCH (Ferritin 2 light chain homologue)","reagent":2,"infection score, replicate 1":20.9,"infection score, replicate 2":14.7,"cell count, replicate 1":6255,"cell count, replicate 2":1696,"Outcome":"inactive"}
